Measured values from several laboratories, pooled; numbers as filed in NIAID ChemDB.

All rows: cytotoxicity tests; cells: WI-38; endpoint: CC50

a–b is a range or a potency band. Lines come from different laboratories, so protocols vary. CCn: concentration that lowers growth or viability of the cells by n%.

smiles,value
CCCCCCCCCN=C(N)c1ccc(N2CCN(c3ccc(C(N)=NCCCCCCCCC)cc3)CC2)cc1,2.52 µg/mL
O=c1[nH]c(=O)n([C@@H]2C[C@H](CO)[C@H]2CO)cc1C=CBr,≥750 µM
Nc1nc2c(ncn2C[C@H]2CC[C@@H](P(=O)(O)O)O2)c(=O)[nH]1,>100 µg/mL
Nc1nc2c(ncn2C[C@@H]2CC[C@H](P(=O)(O)O)O2)c(=O)[nH]1,10–50 µg/mL
Nc1nc2c(ncn2C[C@H]2CC[C@H](P(=O)(O)O)O2)c(=O)[nH]1,>100 µg/mL
C=CCc1nc(C)n2c(=O)[nH]cnc12,200 µg/mL
NC(=NC1CCCCCC1)c1ccc(N2CCN(c3ccc(C(N)=NC4CCCCCC4)cc3)CC2)cc1,>0.69 µg/mL
O=c1[nH]c(=O)n([C@@H]2O[C@H](CO)[C@@H](O)[C@@H]2O)cc1/C=C/Br,>75 µM
Nc1nc2c(ncn2C[C@@H]2CC[C@@H](P(=O)(O)O)O2)c(=O)[nH]1,10–100 µg/mL
CCCCCCCCCCCCN=C(N)c1ccc(N2CCN(c3ccc(C(N)=NCCCCCCCCCCCC)cc3)CC2)cc1,4.54 µg/mL
C=CCc1nc(C)n2c(=O)[nH]c(=S)[nH]c12,100 µg/mL
CC1=NN(c2c(Cl)cc(Cl)cc2Cl)C(=O)C1,241 µM
CCC(C)CN=C(N)c1ccc(N2CCN(c3ccc(C(N)=NCC(C)CC)cc3)CC2)cc1,>0.107 µg/mL
CC[C@H](C)[C@H](N)[C@H](O)n1nc(C)c2c(Cl)c3cc(OC)ccc3nc21,>100 µg/mL
NC(=NC1CCCCCCC1)c1ccc(N2CCN(c3ccc(C(N)=NC4CCCCCCC4)cc3)CC2)cc1,>1.95 µg/mL
C=CCc1ncn2c(=O)[nH]c(NC(C)=O)nc12,400 µg/mL

The last 2 rows once more:

smiles,value
NC(=NC1CCCCCCC1)c1ccc(N2CCN(c3ccc(C(N)=NC4CCCCCCC4)cc3)CC2)cc1,>1.95 µg/mL
C=CCc1ncn2c(=O)[nH]c(NC(C)=O)nc12,400 µg/mL